Results of unrelated studies side by side (data: NIAID ChemDB).

Common to all: whole-cell or culture tests; agent: Mycobacterium tuberculosis

MIC bound comes from a single tested concentration. a–b is a range or a potency band. MIC50, MIC90 and the like: level of inhibition, or share of isolates inhibited. Percent inhibition refers to the dose given; in toxicity tests it is the harm to the cells. Conditions beyond the fields shown may differ between rows. Blank or dashed fields: not listed here. ECn: concentration that inhibits the pathogen or its effect by n%.

smiles,method,read-out,strain,dose,setting,result
CC(=O)N1N=C(c2sc3ccc(Cl)cc3c2Cl)OC1c1cc2cc(C)ccc2nc1Cl,agar diffusion / agar,inhibition,,40 µg/mL,,8%
CC(=O)Nc1ccc2[nH]c(C)cc(=O)c2c1,BACTEC,MIC bound,H37Rv,,,>12.5 µg/mL
CC(=O)N1N=C(c2sc3ccc(Cl)cc3c2Cl)OC1c1ccc(O)cc1,agar diffusion / agar,inhibition,,40 µg/mL,,6%
NC(=O)c1cnc(Cl)cn1,,MIC,ATCC 27294,,,16 µg/mL
Cn1c(C(=O)N=Nc2c(O)[nH]c3ccc(Br)cc23)cc2ccccc21,resazurin,MIC50,H37Ra,,,>50 µg/mL
N#C/C(=C\c1ccc(C(=O)O)cc1)n1nnc2ccccc21,,EC50,,,,>12.5 µg/mL
COc1ccc2cc1Oc1cc(ccc1OC)CCC(=O)CCCC2,broth dilution,MIC,H37Rv,,,>200 µg/mL
N#C/C(=C\c1ccc(Br)cc1)n1nc2ccccc2n1,,inhibition,,12.5 µg/mL,,6%
O=C(N=Nc1c(O)[nH]c2ccccc12)c1ccc(Cl)cc1,resazurin,MIC50,H37Rv,,,>50 µg/mL
Nc1ncnc2c1cnn2Cc1cn(COC[C@@H](O)CO)nn1,BACTEC,inhibition,H37Rv,12.5 µg/mL,,0%
CCC1CN(c2c(F)cc3c(=O)c(C(=O)O)cn(C4CC4)c3c2OC)CCN1,,MIC,Isolate TN2156,,,0.3 µg/mL
C[C@@H]1CN(c2c(F)c(N)c3c(=O)c(C(=O)O)cn(C4CC4)c3c2F)C[C@H](C)N1,,MIC90,25 strains,,,0.2 µg/mL
NNC(=O)c1ccncc1,,MIC,PR1282,,,0.04 µg/mL
Oc1ccc(N=C2N=c3c(c4ccccc4c4ccccc34)=N2)c2ccccc12,resazurin,MIC bound,H37Rv,,,<6.25 µg/mL
CC(=O)N1N=C(c2sc3ccc(Cl)cc3c2Cl)OC1c1ccccc1[N+](=O)[O-],agar diffusion / agar,inhibition,,40 µg/mL,,20%
COC(=O)c1ccc(N2C(=O)c3cccc([N+](=O)[O-])c3C2=O)cc1O,resazurin,MIC50,H37Rv,,,>50 µg/mL
CCCCCS(=O)(=O)Nc1ccc2n[nH]c(C)c2c1,resazurin,MIC,H37Rv,,,0.125 µM
C=C(C=O)c1c2c(nc3ccccc13)C(=O)c1ccccc1C2=O,,MIC,H37Rv,,,0.2 µg/mL
Cc1ccc2nc(C(=O)N/N=C/c3ccc(Oc4ccc(Cl)cc4)cc3)[nH]c2c1,resazurin,MIC,H37Rv,,,3.125 µg/mL
COc1ccc2c(c1)n([O-])c1ccccc1[n+]2=O,,MIC,TAC-R,,,0.8 µg/mL
O=C(NN1C(=O)c2ccccc2C1=O)c1cc(O)cc(O)c1,resazurin,MIC50,H37Rv,,,>50 µg/mL
CN(CNC(=O)c1cnccn1)Cc1ccccc1,,MIC,ATCC 35822,,,100 µg/mL
Cc1nc2c(c(=O)[nH]1)OCN(Cc1ccccc1)C2,BACTEC,MIC bound,H37Rv,,,>12.5 µg/mL
O=C(NCN1CCNCC1)c1cnccn1,,MIC,PZA-resistant,,,100 µg/mL
O=C(N/N=C/C=C/c1ccccc1)c1ccncc1,,MIC,,,,0.1–1 µg/mL
N#C/C(=C\c1ccc(Cl)cc1)n1nnc2ccccc21,,inhibition,,12.5 µg/mL,,86%
O=C1CC(C2c3ccccc3-c3ccccc32)C(=O)N1Cc1ccccc1,,MIC,H37Rv,,,45.3 µM
COc1ccc(N/C=C2\C(=O)CCc3c2oc2cc(Cl)c(O)c(Cl)c32)cc1,BACTEC,inhibition,H37Rv,12.5 µg/mL,,10%
O=C(N=Nc1c(O)[nH]c2ccc(Br)cc12)c1ccccn1,resazurin,MIC50,H37Ra,,,>50 µg/mL
CSC(=S)NCc1nnn(Cc2ccccc2)c1N,BACTEC,MIC bound,H37Rv,,,≤128 µg/mL
CCCCCS(=O)(=O)Nc1ccc2n[nH]c(C(F)(F)F)c2c1,resazurin,MIC,H37Rv,,,12 µM
CS/C(Nc1ccccc1)=C1\CCCn2c1nc1ccccc1c2=O,resazurin,MIC bound,H37Rv,,,>6.25 µg/mL
COc1ccc(Oc2ccc(/C=N/NC(=O)c3nc4ccc(Cl)cc4[nH]3)cc2)cc1,resazurin,MIC,H37Rv,,,12.5 µg/mL
O=C(NN=C1CCCC1)c1cccnc1,,MIC,,,,1 µg/mL
Cc1cc(C(=O)N=Nc2c(O)[nH]c3ccccc23)n[nH]1,resazurin,MIC50,H37Ra,,,>50 µg/mL
CN1CCN(CNC(=O)c2cnccn2)CC1,,MIC,MS6210,,,100 µg/mL
COc1cc(/C=N/NC(=O)c2cccnc2)ccc1O,,MIC,,,,1 µg/mL
CN(C)CCc1c2c(nc3ccccc13)C(=O)c1ccccc1C2=O,,MIC,H37Rv,,,0.78 µg/mL
O=C1C=C(NCCc2ccccc2)c2ccccc2C1=O,resazurin,inhibition,H37Rv,6.25 µg/mL,,99%
O=C(N/N=C/c1ccccc1)c1cc(-c2ccccc2)nc2ccccc12,,MIC,,,,>200 µg/mL
N#C[C@]1(O[C@@H]2O[C@H](CO)[C@@H](O)[C@H](O)[C@H]2O)C=CCC1,BACTEC,MIC bound,H37Rv,,,>12.5 µg/mL
O=C1Nc2ccccc2/C1=N/N=C/c1ccccc1[N+](=O)[O-],resazurin,MIC50,H37Ra,,,>50 µg/mL
CCCCCCCCCCNC(=O)Nc1ccc(S(=O)(=O)Nc2cc(C)on2)cc1,broth dilution / absorbance,MIC100,H37Rv,,14 d,125 µM
CCOc1ccc(/C=N/NC(=O)c2ccncc2)cc1,,MIC,,,,0.1 µg/mL
O=C1CCCCc2ccc(O)c(c2)Oc2cc(ccc2O)CC1,broth dilution,MIC,H37Rv,,,200 µg/mL
Nc1ncnc2c1ncn2[C@H]1O[C@@H](CO)[C@H](NC(=O)C(CCCCNC(=O)OCc2ccccc2)NC(=O)OCc2ccccc2)[C@@H]1O,resazurin,inhibition,H37Rv,6.25 µg/mL,,-1%
NNC(=O)c1ccc2ncccc2c1,,MIC,,,,>40 µg/mL
Cc1c2c(nc3ccccc13)C(=O)c1ccccc1C2=O,,MIC,H37Rv,,,1.56 µg/mL
CC(=O)O[C@@]12CO[C@@H]1C[C@H](O)[C@@]1(C)C(=O)[C@H](OC(=O)N(C)C)C3=C(C)[C@@H](OC(=O)/C=C/c4ccc5ccccc5c4)C[C@@](O)([C@@H](OC(=O)c4ccccc4)[C@H]21)C3(C)C,PCR,MIC,H37Rv,,,2.5 µM
O=C1c2cc(Cl)ccc2OC2CCON12,resazurin,MIC bound,H37Rv,,,>6.25 µg/mL
CN(C)c1ncnc2c1cnn2COC[C@@H](O)CO,BACTEC,EC50,H37Rv,,,>12.5 µg/mL
Cc1cc(NS(=O)(=O)c2ccc(NC(=O)N(C(C)C)C(C)C)cc2)no1,broth dilution / absorbance,MIC100,H37Rv,,14 d,125 µM
CC(C)=CCC(OC(=O)CC(C)C)C1=CC(=O)c2c(O)ccc(O)c2C1=O,BACTEC,MIC,H37Rv,,,≥12.5 µg/mL
Cc1ccc2nc(C(=O)N/N=C/c3ccc(Oc4cccc5ccccc45)cc3)[nH]c2c1,resazurin,MIC,H37Rv,,,12.5 µg/mL
CN(C)/C=C/c1ccnc2c1C(=O)c1ccccc1C2=O,,MIC,H37Rv,,,1.56 µg/mL
CCNC(=O)Nc1ccc(S(=O)(=O)Nc2cc(C)on2)cc1,broth dilution / absorbance,MIC100,H37Rv,,21 d,62.5 µM
COc1ccc2cc1Oc1cc(ccc1OC/C=C(\C)CCC=C(C)C)CCC(=O)CCCC2,broth dilution,MIC,H37Rv,,,>200 µg/mL
OC[C@H](O)COCn1ncc2c(SCc3ccccc3)ncnc21,BACTEC,inhibition,H37Rv,12.5 µg/mL,,0%
O=C(N/N=C/c1ccc(Oc2ccc(Cl)cc2Cl)cc1)c1nc2ccccc2[nH]1,resazurin,MIC,H37Rv,,,12.5 µg/mL
COc1ccc(CCCCC(=O)CCc2ccc(OC)c(Br)c2)cc1O,broth dilution,MIC,H37Rv,,,>200 µg/mL
CN(C)/C=C/c1c2c(nc3ccccc13)C(=O)c1cccnc1C2=O,,MIC,H37Rv,,,3.13 µg/mL
O=c1[nH][nH]c(=O)c2ncccc12,,MIC,,,,>200 µg/mL
CN[C@@H]1[C@H](O[C@H]2[C@H](O[C@H]3[C@H](O)[C@@H](O)[C@H](N=C(N)N)[C@@H](O)[C@@H]3N=C(N)N)O[C@@H](C)[C@]2(O)C=O)O[C@@H](CO)[C@H](O)[C@H]1O,,MIC,666,,,0.2 µg/mL
N#C/C(=C\c1ccccc1)n1nc2ccccc2n1,,inhibition,,12.5 µg/mL,,76%
CC(=O)Nc1ccc(N=Nc2c(C)[nH]n(C(=O)c3sc4ccc(Cl)cc4c3Cl)c2=O)cc1,agar diffusion / agar,inhibition,,40 µg/mL,,50%
Cc1cnc(C(=O)NCN2CCN(C)CC2)cn1,,MIC,PZA-resistant,,,100 µg/mL
N#C/C(=C/c1ccc(C(=O)O)cc1)n1nc2ccccc2n1,,EC50,,,,>12.5 µg/mL
NNC(=O)c1ccncc1,broth dilution / absorbance,MIC100,H37Rv,,14 d,1 µM
OC[C@H](O)COCn1cc(Cn2ncc3c(NCc4ccccc4)ncnc32)nn1,BACTEC,EC50,H37Rv,,,>12.5 µg/mL
N#C/C(=C\c1ccc(Br)cc1)n1nnc2ccccc21,,MIC,,,,12.5 µg/mL
CC(=N/NC(=O)c1cccnc1)/C(C)=N/O,,MIC,,,,100 µg/mL
CCOC(=O)c1oc2ccc3ccccc3c2c1C,BACTEC,inhibition,H37Rv,12.5 µg/mL,,1%
O=C(NCN1CCCC1)c1cnccn1,,MIC,ATCC35801,,,8 µg/mL
O=C(Nc1cc2sc3c(ccc4c(=O)c5ccccc5c(=O)c43)[nH]c2c2c(=O)c3ccccc3c(=O)c12)c1ccc2c3c(nsc13)-c1ccccc1C2=O,BACTEC,inhibition,H37Rv,12.5 µg/mL,,4%
O=C(NCN1CCOCC1)c1cnccn1,,MIC,MS6210,,,100 µg/mL
S=C(S)NC1CCCCCCCCCCC1,BACTEC,MIC bound,H37Rv,,,>12.5 µg/mL
CCCCCCNC1CCCCc2ccc(OC)c(c2)Oc2cc(ccc2OC)CC1,broth dilution,MIC,H37Rv,,,25 µg/mL
O=C(c1ccccc1)c1ccc2nc(C(=O)N/N=C/c3ccc(Oc4ccc(Cl)cc4)cc3)[nH]c2c1,resazurin,MIC,H37Rv,,,12.5 µg/mL
CC1=NN(c2cc(S(=O)(=O)O)ccc2Cl)C(=O)C1N=Nc1ccccc1,BACTEC,MIC,H37Rv,,,≥12.5 µg/mL
Cc1cc(NS(=O)(=O)c2ccc(NC(=O)Nc3ccc(S(=O)(=O)Nc4cc(C)on4)cc3)cc2)no1,broth dilution / absorbance,MIC100,H37Rv,,14 d,2 µM
COc1nc(C(=O)NNC(=O)c2nc(OC)c3ccccc3c2-c2ccccc2)c(-c2ccccc2)c2ccccc12,resazurin,MIC bound,H37Rv,,,>6.25 µg/mL
CCCCCCCNC(=O)Nc1ccc(S(=O)(=O)Nc2cc(C)on2)cc1,broth dilution / absorbance,MIC100,H37Rv,,14 d,250 µM
CCOC(=O)[C@H](CC(C)C)NC(=O)c1c2nc3c(C(=O)N[C@@H](CC(C)C)C(=O)OCC)cc(NC(C)=O)c(C)c3oc-2c(C)c(=O)c1N,BACTEC,MIC bound,H37Rv,,,>12.5 µg/mL
OC[C@@H](O)COCn1cc(Cn2ncc3c(SCc4ccccc4)ncnc32)nn1,BACTEC,inhibition,H37Rv,12.5 µg/mL,,0%
COc1ccc(NC(=O)C(=O)NNC(=O)c2sc(NNC(C)=O)nc2C)c([N+](=O)[O-])c1,resazurin,inhibition,H37Rv,6.25 µg/mL,,16%
CC(=O)N[C@@H]1[C@H](O[C@H]2[C@H](O[C@H]3[C@H](O)[C@@H](O)[C@H](N=C(N)N)[C@@H](O)[C@@H]3N=C(N)N)O[C@@H](C)[C@]2(O)C=O)O[C@@H](CO)[C@H](O)[C@H]1O,,MIC,666,,,1.56 µg/mL
CC1(C)CN(CCO)C(C)(C)CN1CCO,BACTEC,MIC bound,H37Rv,,,>12.8 µg/mL
CC1=CCC(S(=O)(=O)NNC(=O)c2ccncc2)CC1,,MIC,,,,10 µg/mL

The last 5 rows once more:

smiles,method,read-out,strain,dose,setting,result
OC[C@@H](O)COCn1cc(Cn2ncc3c(SCc4ccccc4)ncnc32)nn1,BACTEC,inhibition,H37Rv,12.5 µg/mL,,0%
COc1ccc(NC(=O)C(=O)NNC(=O)c2sc(NNC(C)=O)nc2C)c([N+](=O)[O-])c1,resazurin,inhibition,H37Rv,6.25 µg/mL,,16%
CC(=O)N[C@@H]1[C@H](O[C@H]2[C@H](O[C@H]3[C@H](O)[C@@H](O)[C@H](N=C(N)N)[C@@H](O)[C@@H]3N=C(N)N)O[C@@H](C)[C@]2(O)C=O)O[C@@H](CO)[C@H](O)[C@H]1O,,MIC,666,,,1.56 µg/mL
CC1(C)CN(CCO)C(C)(C)CN1CCO,BACTEC,MIC bound,H37Rv,,,>12.8 µg/mL
CC1=CCC(S(=O)(=O)NNC(=O)c2ccncc2)CC1,,MIC,,,,10 µg/mL